Share of PSTVd loop 15 variants by leaf site

PSTVd intermediate strain, loop 15: wild type GGAAACCGCUACUAC, pool pattern GGAAACCGNNNNNNC; upper and lower strand joined, each 5' to 3', the first 7 letters being the upper strand, closing pairs included.

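A pool of all variants was put on leaves of three Nicotiana benthamiana plants. Progeny were sequenced from the inoculated region (day 5), the margin of the inoculated leaf (day 10) and systemic leaves (day 12).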

Values are reads per thousand in the sample; higher means more abundant, 0 means not found.
Each site shows the three plants.
"Pool" is the share in the plasmid pool used as inoculum, on the same scale.
The inoculated region was read from the minus strand, the other sites from the plus strand.

sequence | pool | inoculated region | leaf margin | systemic leaves
GGAAACCGGCCCAUC | 0.240 | 0.115 / 0.112 / 0.152 | 0.0162 / 0 / 0 | 0 / 0 / 0
GGAAACCGGCCCCAC | 0.336 | 0.164 / 0.0803 / 0.0762 | 0.0323 / 0 / 0.0200 | 0 / 0 / 0
GGAAACCGGCCCCCC | 0.256 | 0.115 / 0.0321 / 0.0762 | 0 / 0 / 0.0200 | 0 / 0 / 0
GGAAACCGGCCCCGC | 0.144 | 0.164 / 0.0643 / 0.0381 | 0.0162 / 0.0223 / 0.0401 | 0.0161 / 0 / 0
GGAAACCGGCCCCUC | 0.400 | 0.147 / 0.0964 / 0.114 | 0 / 0 / 0.0200 | 0.0161 / 0 / 0
GGAAACCGGCCCGAC | 0.272 | 0.0819 / 0.0482 / 0.0952 | 0.0162 / 0 / 0.0200 | 0 / 0 / 0
GGAAACCGGCCCGCC | 0.0960 | 0.0491 / 0.0643 / 0.152 | 0.0323 / 0 / 0.0401 | 0 / 0 / 0
GGAAACCGGCCCGGC | 0.144 | 0.0983 / 0.0482 / 0.0952 | 0 / 0 / 0.0200 | 0 / 0 / 0
GGAAACCGGCCCGUC | 0.128 | 0.131 / 0.161 / 0.152 | 0 / 0 / 0 | 0 / 0 / 0
GGAAACCGGCCCUAC | 0.128 | 0.0328 / 0.0321 / 0.0762 | 0 / 0.0223 / 0.0401 | 0.0161 / 0 / 0
GGAAACCGGCCCUCC | 0.144 | 0.229 / 0.0643 / 0.209 | 0 / 0.0223 / 0.0401 | 0.0161 / 0.0151 / 0
GGAAACCGGCCCUGC | 0.208 | 0.115 / 0.145 / 0.0952 | 0 / 0 / 0.0200 | 0 / 0 / 0
GGAAACCGGCCCUUC | 0.240 | 0.0491 / 0.0161 / 0.0952 | 0.0162 / 0.0445 / 0.0200 | 0 / 0 / 0
GGAAACCGGCCGAAC | 0.176 | 0.278 / 0.337 / 0.267 | 0.0647 / 0.111 / 0.160 | 0 / 0 / 0
GGAAACCGGCCGACC | 0.240 | 0.0819 / 0.0803 / 0.0381 | 0 / 0 / 0 | 0 / 0 / 0
GGAAACCGGCCGAGC | 0.224 | 0.0491 / 0 / 0.0571 | 0.0323 / 0.0223 / 0 | 0 / 0 / 0
GGAAACCGGCCGAUC | 0.192 | 0.278 / 0.305 / 0.400 | 0.146 / 0.0668 / 0.160 | 0.0322 / 0 / 0
GGAAACCGGCCGCAC | 0.208 | 0.0491 / 0.145 / 0.0762 | 0 / 0 / 0 | 0 / 0 / 0
GGAAACCGGCCGCCC | 0.256 | 0.115 / 0.112 / 0.114 | 0 / 0 / 0.0200 | 0 / 0 / 0
GGAAACCGGCCGCGC | 0.400 | 0.115 / 0.0482 / 0.0952 | 0.0162 / 0 / 0.0200 | 0 / 0 / 0
GGAAACCGGCCGCUC | 0.256 | 0.0819 / 0.0964 / 0.0571 | 0 / 0 / 0 | 0.0161 / 0 / 0
GGAAACCGGCCGGAC | 0.176 | 0.197 / 0.145 / 0.171 | 0 / 0 / 0.0200 | 0 / 0 / 0
GGAAACCGGCCGGCC | 0.192 | 0.0655 / 0.112 / 0.133 | 0.0162 / 0 / 0 | 0 / 0 / 0
GGAAACCGGCCGGGC | 0.176 | 0.0491 / 0.177 / 0.0762 | 0 / 0 / 0 | 0 / 0 / 0
GGAAACCGGCCGGUC | 0.240 | 0.0491 / 0.129 / 0.0952 | 0 / 0.0223 / 0 | 0 / 0 / 0
GGAAACCGGCCGUAC | 0.144 | 0.295 / 0.466 / 0.419 | 0.129 / 0.0223 / 0.140 | 0.0483 / 0.0454 / 0.114
GGAAACCGGCCGUCC | 0.256 | 0.0328 / 0.0321 / 0.0952 | 0 / 0.0223 / 0 | 0 / 0 / 0
GGAAACCGGCCGUGC | 0.336 | 0.0655 / 0.0482 / 0.0571 | 0 / 0 / 0 | 0 / 0 / 0
GGAAACCGGCCGUUC | 0.256 | 0.393 / 0.402 / 0.438 | 0.0808 / 0.111 / 0.120 | 0.0483 / 0.0756 / 0.0228
GGAAACCGGCCUAAC | 0.224 | 0.0491 / 0.112 / 0.114 | 0 / 0.0223 / 0 | 0 / 0 / 0.0228
GGAAACCGGCCUACC | 0.224 | 0.0983 / 0.209 / 0.0571 | 0 / 0 / 0 | 0.0161 / 0 / 0
GGAAACCGGCCUAGC | 0.240 | 0.115 / 0.193 / 0.114 | 0 / 0 / 0.0200 | 0 / 0 / 0
GGAAACCGGCCUAUC | 0.288 | 0.164 / 0.0803 / 0.0762 | 0 / 0 / 0 | 0.0161 / 0 / 0
GGAAACCGGCCUCAC | 0.128 | 0.115 / 0.112 / 0.0952 | 0 / 0 / 0.0200 | 0 / 0 / 0
GGAAACCGGCCUCCC | 0.192 | 0.0819 / 0.0643 / 0.0762 | 0 / 0.0223 / 0.0200 | 0.0161 / 0 / 0
GGAAACCGGCCUCGC | 0.224 | 0.131 / 0.112 / 0.114 | 0 / 0 / 0 | 0 / 0 / 0
GGAAACCGGCCUCUC | 0.176 | 0.164 / 0.129 / 0.0952 | 0 / 0.0223 / 0.0601 | 0 / 0 / 0
GGAAACCGGCCUGAC | 0.336 | 0.147 / 0.112 / 0.152 | 0.0323 / 0 / 0 | 0 / 0 / 0
GGAAACCGGCCUGCC | 0.176 | 0.0983 / 0.0803 / 0.133 | 0.0162 / 0 / 0.0200 | 0 / 0 / 0.0228
GGAAACCGGCCUGGC | 0.208 | 0.0655 / 0.0643 / 0.0762 | 0.0162 / 0.0223 / 0.0200 | 0.0161 / 0 / 0
GGAAACCGGCCUGUC | 0.160 | 0.0491 / 0.0643 / 0.0952 | 0 / 0.0223 / 0.0200 | 0 / 0 / 0.0228
GGAAACCGGCCUUAC | 0.176 | 0.0983 / 0.273 / 0.114 | 0 / 0 / 0 | 0 / 0 / 0
GGAAACCGGCCUUCC | 0.240 | 0.0819 / 0.112 / 0.228 | 0.0162 / 0 / 0 | 0 / 0 / 0
GGAAACCGGCCUUGC | 0.256 | 0.0655 / 0.0964 / 0.0762 | 0.0162 / 0 / 0.0200 | 0 / 0 / 0
GGAAACCGGCCUUUC | 0.208 | 0.0819 / 0.0482 / 0.0571 | 0.0323 / 0 / 0.0200 | 0 / 0 / 0
GGAAACCGGCGAAAC | 0.224 | 0.131 / 0.0321 / 0.171 | 0.0162 / 0 / 0 | 0 / 0 / 0
GGAAACCGGCGAACC | 0.256 | 0.0983 / 0.0482 / 0.171 | 0.0162 / 0.0223 / 0 | 0 / 0 / 0
GGAAACCGGCGAAGC | 0.288 | 0.0983 / 0.0482 / 0.0952 | 0.0162 / 0 / 0 | 0 / 0 / 0

The first 4 entries again:

{"sequence": "GGAAACCGGCCCAUC", "pool": "0.240", "inoculated region": "0.115 / 0.112 / 0.152", "leaf margin": "0.0162 / 0 / 0", "systemic leaves": "0 / 0 / 0"}
{"sequence": "GGAAACCGGCCCCAC", "pool": "0.336", "inoculated region": "0.164 / 0.0803 / 0.0762", "leaf margin": "0.0323 / 0 / 0.0200", "systemic leaves": "0 / 0 / 0"}
{"sequence": "GGAAACCGGCCCCCC", "pool": "0.256", "inoculated region": "0.115 / 0.0321 / 0.0762", "leaf margin": "0 / 0 / 0.0200", "systemic leaves": "0 / 0 / 0"}
{"sequence": "GGAAACCGGCCCCGC", "pool": "0.144", "inoculated region": "0.164 / 0.0643 / 0.0381", "leaf margin": "0.0162 / 0.0223 / 0.0401", "systemic leaves": "0.0161 / 0 / 0"}

Samples held 43,870 to 66,106 reads, so the smallest values rest on one or two reads.
For reference, wild type rose from 33.9 per thousand in the pool to 202, 200, 159 (inoculated region), 724, 746, 710 (leaf margin) and 856, 883, 880 (systemic leaves).
The authors trace changes outside the varied positions to PCR and sequencing errors or to mutation in the plant; presence does not show that a variant is infectious alone.

The measurements come from Wu et al. 2024 (doi:10.1371/journal.ppat.1012142).